Experimental data as given in paper PMC4909229, “Characterization of Staphylococcus aureus Primosomal DnaD Protein: Highly Conserved C-Terminal Region Is Crucial for ssDNA and PriA Helicase Binding but Not for DnaA Protein-Binding and Self-Tetrameri”.

Target: T1, SaDnaD (Staphylococcus aureus subsp. aureus ED98) (UniProt Q9EUT0)
T1 sequence (looked up): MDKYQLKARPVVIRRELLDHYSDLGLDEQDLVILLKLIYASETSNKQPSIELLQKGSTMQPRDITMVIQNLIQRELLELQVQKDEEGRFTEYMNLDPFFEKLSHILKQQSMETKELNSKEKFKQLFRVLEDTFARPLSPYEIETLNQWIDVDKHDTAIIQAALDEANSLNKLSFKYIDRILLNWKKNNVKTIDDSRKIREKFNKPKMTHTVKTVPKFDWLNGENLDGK
Assay: EMSA
Details: no stable complex, smears, [Protein]50 ND (up to 16 uM); EMSA: 20 mM Tris-HCl pH 8.0, 100 mM NaCl, 25 C, 30 min, 1.7 nM DNA, gel at 4 C in TBE; recombinant protein; residues 1-228; protein details: C-terminal His tag (pET21e); label: 5'-32P; single-stranded DNA

## TTTTTTTTTTTTTTTTTTTT [dT20]
  binding result: binds more weakly

The comparison behind a weaker result is the experiment's own reference, which may not be listed here. Protein sequences can lack the tags named with them.
